Values of other authors as cited in US9867795B2, “Nitrated lipids and methods of making and using thereof” (The UAB Research Foundation, priority 2004, dated 2018).

Conditions: human blood; literature refs 35, 36; cited from earlier work

Substance: nitrosothiols [RSNO]
- Concentration in plasma: 7.2 ± 1.1 nM
